According to patent US20240123029A1 (HUMANITAS MIRASOLE S P A, published 2024):

Experiments:
[1] = molecular target: T1, SARS-CoV-2 Nucleocapsid protein, His Tag (SARS-CoV-2); assay: ELISA on N protein-coated plate, Ficolin-2 detected with anti-Ficolin-2 antibody
T1 construct: Bought

[2] = molecular target: T1, SARS-CoV-2 Nucleocapsid protein, His Tag; assay: ELISA on N protein-coated plate, CL-K1 detected with anti-CL-K1 antibody

| Binder | binding result [1] | binding result [2] |
| --- | --- | --- |
| Recombinant human Ficolin-2 (other) LQAADTCPEVKMVGLEGSDKLTILRGCPGLPGAPGPKGEAGTNGKRGERGPPGPPGKAGPPGPNGAPGEPQPCLTGPRTCKDLLDRGHFLSGWHTIYLPDCRPLTVLCDMDTDGGGWTVFQRRVDGSVDFYRDWATYKQGFGSRLGEFWLGNDNIHALTAQGTSELRVDLVDFEDNYQFAKYRSFKVADEAEKYNLVLGAFVEGSAGDSLTFHNNQSFSTKDQDNDLNTGNCAVMFQGAWWYKNCHVSNLNGRYLRGTHGSFANGINWKSGKGYNYSYKVSEMKVRPA | no binding | – |
| Recombinant human Collectin-11 (CL-K1) (other) QPAGDDACSVQILVPGLKGDAGEKGDKGAPGRPGRVGPTGEKGDMGDKGQKGSVGRHGKIGPIGSKGEKGDSGDIGPPGPNGEPGLPCECSQLRKAIGEMDNQVSQLTSELKFIKNAVAGVRETESKIYLLVKEEKRYADAQLSCQGRGGTLSMPKDEAANGLMAAYLAQAGLARVFIGINDLEKEGAFVYSDHSPMRTFNKWRSGEPNNAYDEEDCVEMVASGGWNDVACHTTMYFMCEFDKENM | – | no binding |
